The test system of series [1] is O=c1ccn([C@H]2C[C@H](O)[C@@H](COP(=O)(O)OP(=O)(O)OP(=O)(O)O)O2)c(=O)[nH]1. Kind of series: purified protein. The settings on record: pH 7.5; 20.0 °C.
Series [2] concerns Nc1ccn([C@H]2C[C@H](O)[C@@H](COP(=O)(O)OP(=O)(O)OP(=O)(O)O)O2)c(=O)n1. The series is described as follows: purified protein. The settings on record: pH 7.5; 20.0 °C.

Consider one substance from publication PMC5519681, “Differential control of dNTP biosynthesis and genome integrity maintenance by the dUTPase superfamily enzymes” (Scientific Reports, 2017).

Regarding (Mycobacterium tuberculosis H37Rv), the Km in series [1] is 12 ± 3 µM. Moreover, in series [2], the Km is 20 ± 12 µM and the specificity constant (kcat/Km) was 1100 M⁻¹ s⁻¹.
